Results of unrelated studies side by side (data: NIAID ChemDB).

Shared fields: growth or infection tests; species: HIV-1; cell line: MT-4; endpoint: EC50

Conditions beyond the fields shown may differ between rows. Blank or dashed fields: not listed here. ECn: concentration that inhibits the pathogen or its effect by n%.

SMILES | strain or isolate | changes | method | result
O=C(O)CCCCCNC1c2ccc3cc4c5c6c(cc7ccc8cc9cc1c1c9c9c8c7c6c9c6c1c2c3c56)C4 | - | - | p24 | 0.5 µM
COc1cc(C(C#N)c2c(F)cccc2F)nc(N(C)C)n1 | IIIB | K103N + Y181C | MTT | >40 µM
CCn1nc(CC(=O)N/N=C/c2ccco2)nc1C | IIIB | - | cytopathic effect | >102 µg/mL
C=C(C)COCn1c(Cc2ccccc2)c(CF)c(=O)[nH]c1=O | Clinical isolates | Y181C | MTT | >20 µM
Cc1c(Cc2c(Cl)cccc2Cl)nc(N)nc1Nc1ccc(C#N)cc1 | - | - | cytopathic effect / MTT | 0.01 µM
C#CCOCn1c(Cc2ccccc2)c(CO)c(=O)[nH]c1=O | IIIB | EFV:K103R+V179D+P225H | MTT | >100 µM
CCOCn1c(Cc2ccccc2)c(C#N)c(=O)n(COCC)c1=O | IIIB | - | - | >100 µM
C=CCNc1nn2c(=O)c3ccccc3nc2s1 | IIIB | - | cytopathic effect / MTT | 66.8 µg/mL
CCn1nc(Cc2n[nH]c(=S)o2)nc1C | IIIB | - | cytopathic effect | >58.3 µg/mL
C[C@H](CCC=C(c1cc(Cl)c(O)c(C(=O)O)c1)c1cc(Cl)c(O)c(C(=O)O)c1)[C@H]1CCC2C3C(C[C@H](O)[C@@]21C)[C@@]1(C)CC[C@@H](O)C[C@H]1C[C@H]3O | IIIB | - | MTT | 62.3 µM
Nc1ccn([C@@H]2CS[C@H](CO)O2)c(=O)n1 | RES056 | - | MTT | 5 µM
Nc1ncnc2c1ncn2C[C@@H](CO)OCP(=O)(O)O | IIIB | - | cytopathic effect | >13 µM
C=C(C)COCn1c(Cc2cc(Cl)cc(Cl)c2)c(CC)c(=O)[nH]c1=O | IIIB | - | cytopathic effect / MTT | 0.12 µM
CC(C)Nc1cccnc1N1CCN(C(=O)c2cc3cc(NS(C)(=O)=O)ccc3[nH]2)CC1 | IIIB | - | cytopathic effect | >0.05 µg/mL
Cc1c(Cl)nc(N(C)C)nc1C(C#N)c1c(F)cccc1F | IIIB | Y181C | MTT | >34 µM
C=C(CC[C@](C)(O)[C@H]1C(=O)C[C@H]2[C@@H]3C(=O)C=C4[C@@H](O)[C@@H](O)CC[C@]4(C)[C@H]3CC[C@@]21C)C(C)C | NL4-3 | - | MTT | 0.54 µM
C=CCOCn1c(Cc2ccccc2)c(CO)c(=O)[nH]c1=O | - | - | MTT | 6 µM
Cc1c(N)nc(Nc2ccc(C#N)cc2)nc1Cc1c(Cl)cccc1Cl | - | - | cytopathic effect / MTT | 45.2 µM
CCOCn1c(Cc2ccccc2)c(C#N)c(=O)[nH]c1=O | IIIB | - | - | 10 µM
C[C@@H](Cn1cnc2c(=O)[nH]c(N)nc21)OCP(=O)(O)O | IIIB | - | cytopathic effect | 27 µM
C=CCn1c(=O)c(C)cn([C@@H]2O[C@H](CO[Si](C)(C)C(C)(C)C)C3(OS(=O)(=O)C=C3N)[C@H]2O)c1=O | IIIB | - | p24 | >8 µg/mL
COc1nc(N(C)C)nc(C(C#N)c2c(F)cccc2F)c1C | IIIB | K103N + Y181C | MTT | >10 µM
O=C(NCc1ccc(F)c(Cl)c1F)c1cn2c(c(O)c1=O)C(=O)N1CCCO[C@]13C1CC1C[C@H]23 | IIIB | - | luminescence | 0.003754 µM
CCc1c(Cc2cc(Cl)cc(Cl)c2)n(COCC=C(C)C)c(=O)[nH]c1=O | NNRTI-resistant (RT K103N Y181C) A17 | RT-K103N Y181C | cytopathic effect / MTT | >10 µM
CCn1nc(CC(=O)NN=C(C)C)nc1C | IIIB | - | cytopathic effect | >95.1 µg/mL
Nc1nc2c(ncn2C[C@@H](CF)OCP(=O)(O)O)c(=O)[nH]1 | IIIB | - | cytopathic effect | 3.9 µM
COc1cccc(OC)c1C(=O)c1nc(N(C)C)nc(OC)c1C | IIIB | Y181C | MTT | >8 µM
CCOCn1c(Cc2ccccc2)c(C(C)C)c(=O)[nH]c1=O | NNRTI-resistant (RT K103N Y181C) A17 | RT-K103N Y181C | cytopathic effect / MTT | >10 µM
Nc1nc(N)c2ncn(C[C@@H](CO)OCP(=O)(O)O)c2n1 | IIIB | - | cytopathic effect | ≥62 µM
Cc1cc(C#N)cc(C)c1Oc1nc(Nc2ccc(C#N)cc2)nc(N)c1Br | IIIB | Y181C | MTT | 0.014 µM
CCOP(=O)(CO[C@@H]1C=C[C@H](n2cnc3c(N)ncnc32)C1(F)F)OCC | - | - | cytopathic effect | 87.8 µM
Cc1cn([C@@H]2O[C@H](CO[Si](C)(C)C(C)(C)C)[C@@H](O)[C@H]2O[Si](C)(C)C(C)(C)C)c(=O)[nH]c1=O | IIIB | - | p24 | >1.6 µg/mL
O=C(NCc1ccc(F)c(Cl)c1F)c1cn2c(c(O)c1=O)C(=O)N1CCC[C@]13COCC[C@H]23 | IIIB | - | luminescence | 0.004128 µM
Cc1cn([C@H]2C[C@H](N=[N+]=[N-])[C@@H](CO)O2)c(=O)[nH]c1=O | IIIB | - | MTT | 0.01822 µM
CCc1c(Cc2cc(C)cc(C)c2)n(Cc2ccc(C#CCF)cc2)c(=O)[nH]c1=O | IIIB | K103N + Y181C | MTT | >2 µM
CCC[C@@]1(CCc2ccccc2)CC(O)=C([C@H](CC)c2cccc(NS(=O)(=O)c3ccc(C(F)(F)F)cn3)c2)C(=O)O1 | T13717 | V32I I50V L76V G73S V82I | reporter gene | 86 nM
CC(C)[C@H](C)CC[C@](C)(O)[C@H]1C(=O)C[C@H]2[C@@H]3C(=O)C=C4C[C@@H](O)CC[C@]4(C)[C@H]3CC[C@@]21C | NL4-3 | Y181C IN-resistant | MTT | 0.119 µM
Nc1ncnc2c1ncn2[C@H]1C=C[C@@H](OCP(=O)(O)O)C1(F)F | - | - | cytopathic effect | 19 µM
CCc1c(Cc2cc(Cl)cc(Cl)c2)n(COC/C(C)=C/c2ccccc2)c(=O)[nH]c1=O | NNRTI-resistant (RT Y181C) N119 | RT-Y181C | cytopathic effect / MTT | 2 µM
Nc1nc(NC2CC2)c2ncn([C@H]3CO[C@@H](CO)O3)c2n1 | IIIB Laboratory strain | - | RT activity | 0.14 µM
Nc1nc(N)c2ncn(C[C@H](CO)OCP(=O)(O)O)c2n1 | IIIB | - | cytopathic effect | 25 µM
CC(C)CCC[C@@H](C)[C@H]1CC[C@H]2[C@@H]3CC[C@H]4C[C@@H](CCC=C(c5cc(Cl)c(O)c(C(=O)O)c5)c5cc(Cl)c(O)c(C(=O)O)c5)CC[C@]4(C)[C@H]3CC[C@]12C | IIIB | - | cytopathic effect | 1.8 µg/mL
CC(C)CCC[C@@H](C)[C@H]1CC[C@H]2[C@@H]3CC[C@H]4C[C@@H](CCC=C(c5cc(Cl)c(O)c(C(=O)O)c5)c5cc(Cl)c(O)c(C(=O)O)c5)CC[C@]4(C)[C@H]3CC[C@]12C | IIIB | - | MTT | 3 µM
Nc1ncc2ncn(C[C@@H](CF)OCP(=O)(O)O)c2n1 | IIIB | - | cytopathic effect | >300 µM
CN(C)c1nc(Cl)cc(C(C#N)c2c(F)cccc2F)n1 | IIIB | K103N + Y181C | MTT | >80 µM
CCc1c(Cc2cc(Cl)cc(Cl)c2)n(COC/C=C/c2ccccc2)c(=O)[nH]c1=O | NNRTI-resistant (RT K103N Y181C) A17 | RT-K103N Y181C | cytopathic effect / MTT | >10 µM
C#CCOCn1c(Cc2ccccc2)c(CF)c(=O)[nH]c1=O | IIIB | K103N + Y181C | MTT | >100 µM
CC(C)(C)[Si](C)(C)OC[C@H]1O[C@@H](n2ccc(=O)[nH]c2=O)[C@H](O[Si](C)(C)C(C)(C)C)C12OS(=O)(=O)C=C2N | IIIB | - | p24 | >1.6 µg/mL
CCOCn1c(Cc2ccccc2)c(C(C)C)c(=O)[nH]c1=O | - | Y181C resistant | MTT | 20 µM
COc1ccc(C(Nc2ncnc3c2ncn3[C@@H]2O[C@H](CO[Si](C)(C)C(C)(C)C)C3(OS(=O)(=O)C=C3N)[C@H]2O[Si](C)(C)C(C)(C)C)(c2ccccc2)c2ccccc2)cc1 | IIIB | - | p24 | >100 µg/mL
NC(=O)C[C@H](NC(=O)CNC1c2ccc3cc4c5c6c(cc7ccc8cc9cc1c1c9c9c8c7c6c9c6c1c2c3c56)C4)C(=O)O | - | - | p24 | 105 µM
O=C(/C=C(\O)c1ncn[nH]1)c1ccc(Cc2ccc(F)cc2)o1 | IIIB | - | - | 0.2 µM
CCc1nc(CC(=O)NN=C(C)C)nn1CC | IIIB | - | cytopathic effect | >117 µg/mL
COc1cccc(F)c1C(=O)c1nc(N(C)C)nc(OC)c1C | IIIB | K103N + Y181C | MTT | >7.8 µM
O=c1c2ccccc2nc2scnn12 | IIIB | - | cytopathic effect / MTT | 82.05 µg/mL
CCn1nc(CC(=O)N/N=C/c2ccccc2)nc1C | IIIB | - | cytopathic effect | >104 µg/mL
O=c1[nH]cnc2c1ncn2[C@@H]1O[C@H](CO)[C@H]1CO | RF | - | RT activity | 2.7 µM

A second listing of 6 rows from above:

SMILES	strain or isolate	changes	method	result
COc1nc(N(C)C)nc(C(C#N)c2c(F)cccc2F)c1C	IIIB	K103N + Y181C	MTT	>10 µM
CC(C)Nc1cccnc1N1CCN(C(=O)c2cc3cc(NS(C)(=O)=O)ccc3[nH]2)CC1	IIIB	-	cytopathic effect	>0.05 µg/mL
Nc1nc(N)c2ncn(C[C@H](CO)OCP(=O)(O)O)c2n1	IIIB	-	cytopathic effect	25 µM
COc1cccc(OC)c1C(=O)c1nc(N(C)C)nc(OC)c1C	IIIB	Y181C	MTT	>8 µM
CCOCn1c(Cc2ccccc2)c(C#N)c(=O)[nH]c1=O	IIIB	-	-	10 µM
C=CCNc1nn2c(=O)c3ccccc3nc2s1	IIIB	-	cytopathic effect / MTT	66.8 µg/mL